Results of unrelated studies side by side (data: NIAID ChemDB).

Shared fields: cytotoxicity tests; cells: MT-4; method: MTT; measure: CC50

Neighbouring rows are from separate reports. CCn is the concentration with n% toxicity to the cells.

{"SMILES": "CC(C)CN(C[C@@H](O)[C@H](Cc1ccccc1)NC(=O)O[C@H]1CO[C@H]2OCC[C@H]21)S(=O)(=O)c1ccc(-c2coc(-c3ccc(Br)cc3)n2)cc1", "result": ">32.4 µM"}
{"SMILES": "Cc1cc(C)cc(Oc2c(C(C)C)c(=O)[nH]c(=O)n2Cc2ccc3ccccc3c2)c1", "result": "8.2 µg/mL"}
{"SMILES": "C/C(=N\\Nc1nc(-c2ccc(Br)cc2)cs1)c1ccc2c(c1)OCO2", "result": "41.93 µM"}
{"SMILES": "Cc1cn([C@H]2C=C[C@@H](COP(=O)(Nc3cc(C(=O)Nc4cc(C(=O)Nc5cc(C(=O)Nc6cc(C(=O)NCCC(=N)N)n(C)c6)n(C)c5)n(C)c4)n(C)c3)OC(C)C)O2)c(=O)[nH]c1=O", "result": "182 µM"}
{"SMILES": "Cc1cccc(C)c1OCC(=O)N[C@@H](Cc1ccccc1)[C@H](O)CN(CC(C)C)S(=O)(=O)c1ccc(-c2ccn[nH]2)cc1", "result": "63.1 µM"}
{"SMILES": "CC1CCNC2CCCCC2NC(C)CCNC2CCCCC2N1", "result": ">372 µM"}
{"SMILES": "CCc1c(Sc2cc(C)cc(C)c2)n(Cc2nc3ccccc3o2)c(=O)[nH]c1=O", "result": ">100 µg/mL"}
{"SMILES": "CCOCn1c(Cc2ccc(C)cc2)c(CC)c(=O)[nH]c1=O", "result": ">100 µM"}
{"SMILES": "COc1cc(/C=C/c2nc(NC(=S)Nc3ccccc3C)c3ccccc3n2)cc(OC)c1OC", "result": "4.05 µg/mL"}
{"SMILES": "Cc1cc(-c2nc(-c3ccc(S(=O)(=O)N(CC(C)C)C[C@@H](O)[C@H](Cc4ccccc4)NC(=O)O[C@H]4CO[C@H]5OCC[C@H]54)cc3)co2)no1", "result": ">32.4 µM"}
{"SMILES": "CCc1c(Cc2ccccc2)n(COCCCc2ccccc2)c(=O)[nH]c1=O", "result": "23 µM"}
{"SMILES": "CN(C)c1nc(Cl)cc(C(C#N)c2c(F)cccc2F)n1", "result": "80 µM"}
{"SMILES": "COc1cc2c(cc1OC)C1=NOC(c3cccc(N)c3)C1C2", "result": "13.83 µM"}
{"SMILES": "CCOCn1c(Cc2ccccc2)c(C(C)C)c(=O)[nH]c1=O", "result": ">100 µM"}
{"SMILES": "COc1cc(/C=C/c2nc(NC(=S)Nc3cccc(C)c3)c3ccccc3n2)cc(OC)c1OC", "result": "5.46 µg/mL"}
{"SMILES": "Cc1cc(C)cc(Oc2c(C(C)C)c(=O)[nH]c(=O)n2Cc2cccc(Cl)n2)c1", "result": ">100 µg/mL"}
{"SMILES": "CCc1c(Cc2cc(C)cc(C)c2)n(COCC2CC2)c(=O)[nH]c1=O", "result": "51 µM"}
{"SMILES": "CCc1c(Sc2cc(C)cc(C)c2)n(Cc2cc(F)cc(F)c2)c(=O)[nH]c1=O", "result": ">100 µg/mL"}
{"SMILES": "CCc1c(Cc2ccc(C)cc2)n(COCC2CC2)c(=O)[nH]c1=O", "result": ">100 µM"}
{"SMILES": "COc1cccc(F)c1C(=O)c1nc(N(C)C)nc(OC)c1C", "result": "7.8 µM"}
{"SMILES": "Cc1ccc(S(=O)(=O)NC(Cc2ccccc2)c2nnc(Nc3ccc(Br)cc3)s2)cc1", "result": ">1.58 µg/mL"}
{"SMILES": "Cc1cn([C@H]2C[C@H](N=[N+]=[N-])[C@@H](CO)O2)c(=O)[nH]c1=O", "result": ">25 µM"}
{"SMILES": "Cc1cc(-c2ccc(C#N)cc2)cc(C)c1Oc1ccnc(S(=O)(=O)C(C)C(=O)NCc2ccc(Cl)cc2)n1", "result": "12.17 µM"}
{"SMILES": "Cc1cn([C@H]2C=C[C@@H](COP(=O)(Nc3cc(C(=O)Nc4cc(C(=O)Nc5cc(C(=O)NCCC#N)n(C)c5)n(C)c4)n(C)c3)OC(C)C)O2)c(=O)[nH]c1=O", "result": "137 µM"}
{"SMILES": "COc1ccc(CSc2nc(C(C)c3c(F)cccc3F)c(C)c(=O)[nH]2)cc1", "result": ">12.43 µM"}
{"SMILES": "Cc1cn([C@H]2C[C@H](N=[N+]=[N-])[C@@H](COP(=O)(O)C(=O)NCC[N+](C)(C)C)O2)c(=O)[nH]c1=O", "result": ">2200 µM"}
{"SMILES": "Cc1c(Cl)nc(N(C)C)nc1C(C#N)c1c(F)cccc1F", "result": "34 µM"}
{"SMILES": "CCc1c(Oc2cc(C)cc(C)c2)n(Cc2cc(C(F)(F)F)cc(C(F)(F)F)c2)c(=O)[nH]c1=O", "result": ">100 µg/mL"}
{"SMILES": "Cc1cc(C)cc(S(=O)(=O)c2c(C(=O)/C=C/C(N)=O)[nH]c3ccc(Cl)cc23)c1", "result": ">200 µM"}
{"SMILES": "COc1cc2c(cc1OC)C1=NOC(c3cccs3)C1C2", "result": "11.74 µM"}
{"SMILES": "Cc1cc(-c2ccc(C#N)cc2)cc(C)c1Oc1ccnc(S(=O)(=O)C(C)C(=O)NCc2ccc(Br)cc2)n1", "result": "4.76 µM"}
{"SMILES": "Cc1cn([C@H]2C=C[C@@H](COP(=O)(Nc3cc(C(=O)Nc4cc(C(=O)Nc5cc(C(=O)NCCC(=N)N)n(C)c5)n(C)c4)n(C)c3)OC(C)C)O2)c(=O)[nH]c1=O", "result": "98 µM"}
{"SMILES": "Cc1cc(-c2ccc(C#N)cc2)cc(C)c1Oc1ccnc(S(=O)(=O)CC(=O)NCc2ccc(C#N)cc2)n1", "result": "51.23 µM"}
{"SMILES": "COc1cc2c(cc1OC)C1=NOC(c3ccccc3)C1C2", "result": "12.9 µM"}
{"SMILES": "CCc1c(Oc2cc(C)cc(C)c2)n(Cc2cc(Br)cc(Br)c2)c(=O)[nH]c1=O", "result": ">100 µg/mL"}
{"SMILES": "COc1cc2c(cc1OC)C1=NOC(c3ccco3)C1C2", "result": "10.76 µM"}
{"SMILES": "Cc1cn([C@H]2C[C@H](N=[N+]=[N-])[C@@H](COP(=O)(O)CCN)O2)c(=O)[nH]c1=O", "result": "2700 µM"}
{"SMILES": "C/C(=N\\Nc1nc(-c2ccc([N+](=O)[O-])cc2)cs1)c1ccc2c(c1)OCO2", "result": "97.2 µM"}
{"SMILES": "Cc1cc(/C=C/C#N)cc(C)c1Oc1ccnc(S(=O)(=O)CC(=O)Nc2ccc(Cl)cc2)n1", "result": "4.29 µM"}
{"SMILES": "COc1nc(N(C)C)nc(C(=O)c2c(F)cccc2F)c1C", "result": "20 µM"}
{"SMILES": "COc1cc(/C=C/c2nc(NC(=O)Nc3ccc([N+](=O)[O-])cc3)c3ccccc3n2)cc(OC)c1OC", "result": "1.72 µg/mL"}
{"SMILES": "Cc1cn([C@H]2C=C[C@@H](COP(=O)(Nc3cc(C(=O)Nc4cc(C(=O)Nc5cc(C(=O)NCCC#N)n(C)c5)n(C)c4)n(C)c3)OC3CCCCC3)O2)c(=O)[nH]c1=O", "result": "113 µM"}
{"SMILES": "Cc1c(C(C)c2c(F)cccc2F)nc(N(C)C)[nH]c1=O", "result": ">100 µM"}
{"SMILES": "COc1cc(/C=C/c2nc(NC(=S)Nc3ccc(Cl)cc3)c3ccccc3n2)cc(OC)c1OC", "result": "1.73 µg/mL"}
{"SMILES": "CCc1c(C(=O)c2cc(C)cc(C)c2)n(Cc2cc(C(F)(F)F)cc(C(F)(F)F)c2)c(=O)[nH]c1=O", "result": ">100 µg/mL"}
{"SMILES": "Cc1cn(CCCO[C@@H]2O[C@H](CO)[C@@H](N=[N+]=[N-])[C@H]2O)c(=O)[nH]c1=O", "result": ">100 µg/mL"}
{"SMILES": "CCOC(=O)CCc1nc(-c2ccc(S(=O)(=O)N(CC(C)C)C[C@@H](O)[C@H](Cc3ccccc3)NC(=O)O[C@H]3CO[C@H]4OCC[C@H]43)cc2)co1", "result": ">100 µM"}
{"SMILES": "Cc1cn([C@H]2C[C@H](N=[N+]=[N-])[C@@H](COP(=O)(O)C(=O)NCCN)O2)c(=O)[nH]c1=O", "result": ">2400 µM"}
{"SMILES": "COc1cc(/C=C/c2nc(NC(=S)Nc3ccc(C)cc3)c3ccccc3n2)cc(OC)c1OC", "result": "1.7 µg/mL"}
{"SMILES": "C/C(=N\\Nc1nc(-c2ccc(C#N)cc2)cs1)c1ccc(Cl)c(Cl)c1", "result": "17.1 µM"}
{"SMILES": "CNc1nc(-c2ccc(S(=O)(=O)N(CC(C)C)C[C@@H](O)[C@H](Cc3ccccc3)NC(=O)O[C@H]3CO[C@H]4OCC[C@H]43)cc2)cs1", "result": "64.6 µM"}
{"SMILES": "CCc1c(Sc2cc(C)cc(C)c2)n(Cc2cc(C(F)(F)F)cc(C(F)(F)F)c2)c(=O)[nH]c1=O", "result": ">100 µg/mL"}

Repeating the first 5 entries:

CC(C)CN(C[C@@H](O)[C@H](Cc1ccccc1)NC(=O)O[C@H]1CO[C@H]2OCC[C@H]21)S(=O)(=O)c1ccc(-c2coc(-c3ccc(Br)cc3)n2)cc1 ; result: >32.4 µM
Cc1cc(C)cc(Oc2c(C(C)C)c(=O)[nH]c(=O)n2Cc2ccc3ccccc3c2)c1 ; result: 8.2 µg/mL
C/C(=N\Nc1nc(-c2ccc(Br)cc2)cs1)c1ccc2c(c1)OCO2 ; result: 41.93 µM
Cc1cn([C@H]2C=C[C@@H](COP(=O)(Nc3cc(C(=O)Nc4cc(C(=O)Nc5cc(C(=O)Nc6cc(C(=O)NCCC(=N)N)n(C)c6)n(C)c5)n(C)c4)n(C)c3)OC(C)C)O2)c(=O)[nH]c1=O ; result: 182 µM
Cc1cccc(C)c1OCC(=O)N[C@@H](Cc1ccccc1)[C@H](O)CN(CC(C)C)S(=O)(=O)c1ccc(-c2ccn[nH]2)cc1 ; result: 63.1 µM